A mixed list of measured activities; the numbers were collected in NIAID ChemDB.

Common to all: growth or infection tests; agent: Hepatitis C virus; measure: EC50

ECn: concentration that inhibits the pathogen or its effect by n%. Conditions beyond the fields shown may differ between rows. a–b is a range or a potency band. Blank or dashed fields: not listed here.

| SMILES | method | cell line | strain or isolate | value |
|---|---|---|---|---|
| CCc1cc2c(C(=O)NC)c(-c3ccc(F)cc3)oc2cc1N(C)S(C)(=O)=O | replicon | Huh7 | - | <1 µM |
| C=CC1CC1(NC(=O)[C@@H]1C[C@@H](OC(=O)Nc2ncccc2C(=O)OCC)CN1C(=O)[C@@H](NC(=O)OC(C)(C)C)C(C)(C)C)C(=O)NS(=O)(=O)C1CC1 | replicon | Huh7 | 1b | 1–10 µM |
| CC1CCC(C(=O)N(c2cc(-c3ccc(NC(=O)c4cn[nH]c4)cc3)sc2C(=O)O)C(C)C)CC1 | replicon | - | 1a | >0.5 µM |
| C=CC1CC1(NC(=O)[C@@H]1C[C@@H](OC(=O)Nc2cc(C(F)(F)F)ccc2-n2cccn2)CN1C(=O)[C@@H](NC(=O)OC(C)(C)C)C(C)(C)C)C(=O)NS(=O)(=O)C1CC1 | replicon | Huh7 | 1b | <0.1 µM |
| CNC(=O)c1c(-c2ccc(F)cc2)oc2cc(S(N)(=O)=O)c(OC(C)C)cc12 | replicon | Huh7 | - | >30 µM |
| CCCC1(S(=O)(=O)NC(=O)[C@]2(NC(=O)[C@@H]3C[C@@H](Oc4cc(-c5ccccc5)nc5cc(OC)ccc45)CN3C(=O)[C@@H](NC(=O)OC(C)(C)C)C(C)(C)C)CC2C2CC2)CC1 | replicon | Huh7 | 1b | 0.05–0.5 µM |
| CNC(=O)c1c(-c2ccc(F)cc2)oc2cc(C)c(OC(C)C)c(S(N)(=O)=O)c12 | replicon | Huh7 | - | >30 µM |
| COc1ccc2c(O[C@@H]3C[C@@H](C(=O)NC4(C(=O)NS(=O)(=O)C5(Nc6ccccc6)CC5)CC4)N(C(=O)[C@@H](NC(=O)OC(C)(C)C)C(C)(C)C)C3)cc(-c3ccccc3)nc2c1 | replicon | Huh7 | 1b | 5–50 µM |
| C=CC1CC1(NC(=O)[C@@H]1C[C@@H](OC(=O)Nc2cc(C)ccc2Cl)CN1C(=O)[C@@H](NC(=O)OC(C)(C)C)C(C)(C)C)C(=O)NS(=O)(=O)C1CC1 | replicon | Huh7 | 1b | 0.1–1 µM |
| C=C[C@H]1C[C@@]1(NC(=O)[C@@H]1C[C@@H](Oc2cc(-c3ccccc3)nc3cc(OC)ccc23)CN1C(=O)[C@@H](NC(=O)OC1CCOCC1)C(C)(C)C)C(=O)NS(=O)(=O)C1(Cc2ccccc2)CC1 | replicon | Huh7 | 1b | 0.05–0.5 µM |
| C=CC1CC1(NC(=O)[C@@H]1C[C@@H](OC(=O)Nc2cccc(Cl)c2Cl)CN1C(=O)[C@@H](NC(=O)OC(C)(C)C)C(C)(C)C)C(=O)NS(=O)(=O)C1CC1 | replicon | Huh7 | 1b | 0.1–1 µM |
| COC(=O)N[C@H](C(=O)N1CCCC1c1ncc(-c2ccc(-c3ccc(-c4cnc([C@@H]5CC(C)CN5C(=O)[C@@H](NC(=O)CO)C(C)C)[nH]4)cc3)cc2)[nH]1)C(C)C | luciferase | ET | 1b Con1 | 0.0000098 µM |
| CNC(=O)c1c(-c2ccc(F)cc2)oc2cc(C3CCOC3)c(OC)cc12 | replicon | Huh7 | - | <1 µM |
| C=C[C@H]1C[C@@]1(NC(=O)[C@@H]1C[C@@H](Oc2cc(C3CC3)nc3cc(OC)ccc23)CN1C(=O)[C@@H](NC(=O)OC(C)(C)C)C(C)(C)C)C(=O)NS(=O)(=O)C1(CC2CC2)CC1 | replicon | Huh7 | 1b | <0.05 µM |
| C=CC1CC1(NC(=O)[C@@H]1C[C@@H](OC(=O)Nc2ccccc2Br)CN1C(=O)[C@@H](NC(=O)OC(C)(C)C)C(C)(C)C)C(=O)NS(=O)(=O)C1CC1 | replicon | Huh7 | 1b | 0.1–1 µM |
| CC1CCC(C(=O)N(c2cc(-c3ccc(NC(=O)c4ccc(F)cc4)c(Cl)c3)sc2C(=O)O)C(C)C)CC1 | replicon | - | 1a | <0.5 µM |
| CNC(=O)c1c(-c2ccc(F)cc2)oc2cc(N(C)S(C)(=O)=O)c(OCc3csc(C)n3)cc12 | replicon | Huh7 | - | <1 µM |
| C=C[C@H]1C[C@@]1(NC(=O)[C@@H]1C[C@@H](Oc2cc(-c3ccccc3)nc3cc(OC)ccc23)CN1C(=O)[C@@H](NC(=O)OC1CCCC1)C(C)(C)C)C(=O)NS(=O)(=O)C1(Cc2ccccc2)CC1 | replicon | Huh7 | 1b | 0.05–0.5 µM |
| C=CC1CC1(NC(=O)[C@@H]1C[C@@H](OC(=O)Nc2ccc(OC)cc2)CN1C(=O)[C@@H](NC(=O)OC(C)(C)C)C(C)(C)C)C(=O)NS(=O)(=O)C1CC1 | replicon | Huh7 | 1b | 1–10 µM |
| CNC(=O)c1c(-c2ccc(F)cc2)oc2cc(N(C)S(C)(=O)=O)c(OCC3CC3)cc12 | replicon | Huh7 | - | <1 µM |
| CC1CCC(C(=O)N(CC(F)(F)F)c2cc(-c3ccc(NC(=O)c4cscn4)cc3)sc2C(=O)O)CC1 | replicon | - | 1a | <0.5 µM |
| C=CC1CC1(NC(=O)[C@@H]1C[C@@H](OC(=O)Nc2ccccc2-c2ccc(C)o2)CN1C(=O)[C@@H](NC(=O)OC(C)(C)C)C(C)(C)C)C(=O)NS(=O)(=O)C1CC1 | replicon | Huh7 | 1b | <0.1 µM |
| C=C[C@H]1C[C@@]1(NC(=O)[C@@H]1C[C@@H](Oc2cc(-c3ccccc3)nc3cc(OC)ccc23)CN1C(=O)[C@@H](NC(=O)NCC)C(C)(C)C)C(=O)NS(=O)(=O)C1(Cc2ccccc2)CC1 | replicon | Huh7 | 1b | 0.05–0.5 µM |
| C=CC1CC1(NC(=O)[C@@H]1C[C@@H](OC(=O)N[C@H]2C[C@@H]2c2ccccc2)CN1C(=O)[C@@H](NC(=O)OC(C)(C)C)C(C)(C)C)C(=O)NS(=O)(=O)C1CC1 | replicon | Huh7 | 1b | 1–10 µM |
| C=C[C@H]1C[C@@]1(NC(=O)[C@@H]1C[C@@H](Oc2cc(-c3ccccc3)nc3cc(OC)ccc23)CN1C(=O)[C@@H](NC(=O)OC(C)(C)C)C(C)(C)C)C(=O)NS(=O)(=O)C1(C(=C)C)CC1 | replicon | Huh7 | 1b | <0.05 µM |
| CNC(=O)c1c(-c2ccc(F)cc2)oc2cc(C=O)c(OC(C)C)cc12 | replicon | Huh7 | - | <30 µM |
| C=C[C@H]1C[C@@]1(NC(=O)[C@@H]1C[C@@H](Oc2cc(-c3ccccc3)nc3cc(OC)ccc23)CN1C(=O)[C@@H](NC(=O)NC(C)(C)C)C(C)(C)C)C(=O)NS(=O)(=O)C1(Cc2ccccc2)CC1 | replicon | Huh7 | 1b | 0.05–0.5 µM |
| Cc1ccoc1C(=O)Nc1ccc(-c2cc(N(C(=O)C3CCC(C)CC3)C(C)C)c(C(=O)O)s2)cc1 | replicon | - | 1a | <0.5 µM |
| C=CC1CC1(NC(=O)[C@@H]1C[C@@H](OC(=O)Nc2cccc(C(=O)OCC)c2)CN1C(=O)[C@@H](NC(=O)OC(C)(C)C)C(C)(C)C)C(=O)NS(=O)(=O)C1CC1 | replicon | Huh7 | 1b | 1–10 µM |
| C=CC1CC1(NC(=O)[C@@H]1C[C@@H](Oc2cc(-c3ccccc3)nc3cc(OC)ccc23)CN1C(=O)[C@@H](NC(=O)OC(C)(C)C)C(C)(C)C)C(=O)NS(=O)(=O)C1([Si](C)(C)C)CC1 | replicon | Huh7 | 1b | <0.05 µM |

The first 2 rows once more:

SMILES | method | cell line | strain or isolate | value
CCc1cc2c(C(=O)NC)c(-c3ccc(F)cc3)oc2cc1N(C)S(C)(=O)=O | replicon | Huh7 | - | <1 µM
C=CC1CC1(NC(=O)[C@@H]1C[C@@H](OC(=O)Nc2ncccc2C(=O)OCC)CN1C(=O)[C@@H](NC(=O)OC(C)(C)C)C(C)(C)C)C(=O)NS(=O)(=O)C1CC1 | replicon | Huh7 | 1b | 1–10 µM